Test results from paper PMC10362037.

Target: SARS-CoV-2 Omicron (B.1.1.529) Spike S1 (Sino Biological, 40591-V08H41) (SARS-CoV-2)
Assay: SPR

## human ACE2 (Abclonal, RP01266) (from UniProt Q9BYF1 18-740) (receptor)
  Kd: 96.2 nM
